Measured values from several laboratories, pooled; numbers as filed in NIAID ChemDB.

All rows: cytotoxicity tests; cells: HEL; endpoint: CC50

Lines come from different laboratories, so protocols vary. CCn is the concentration with n% toxicity to the cells.

Nc1nc2c(ncn2[C@@H]2C[C@H](CO)[C@H]2CO)c(=O)[nH]1 ; result: 19.8 µg/mL
CCCCCCc1cc2cnc(OC3CCCC3)nc2o1 ; result: >200 µM
Cc1c(S(=O)(=O)c2ccc(Cl)cc2)c(NC(=O)C(F)(F)F)n(Cc2ccccc2)c1C ; result: 28 µg/mL
O=S(=O)(c1ccc(Cl)c[n+]1[O-])C(Cl)c1ccccc1 ; result: 2.3 µg/mL
CCCCCCCCCCc1cc2cnc(OCCCC)nc2o1 ; result: >200 µM
COc1ccc(C)cc1CSc1cccc[n+]1[O-] ; result: 31 µg/mL
Cc1c(Br)cc(Br)c2ncc(CSCc3ccccc3F)n12 ; result: >50 µg/mL
Nc1cnn(C[C@H](CO)OCP(=O)(O)O)c(=O)n1 ; result: >50 µg/mL
CCCCCCCc1cc2cnc(OC(CC)CC)nc2o1 ; result: 98 µM
COc1ccc(-c2cc3cn([C@H]4C[C@H](O)[C@@H](CO)O4)c(=O)nc3o2)cc1 ; result: >200 µM
COc1ccc(CSCc2cnc3c(Br)cc(Br)c(C)n23)cc1 ; result: >50 µg/mL
CCCCCCCc1cc2cn(C(CC)CC)c(=O)nc2o1 ; result: >200 µM
Cc1ccc(C)c(CS(=O)(=O)c2cccc(Cl)[n+]2[O-])c1 ; result: 4 µg/mL
O=C[C@H]1C[C@H](n2ccc(=O)[nH]c2=O)O[C@@H]1CO ; result: 0.1 µg/mL
CCCCCCCOc1ccc(-c2cc3cn([C@H]4C[C@H](O)[C@@H](CO)O4)c(=O)nc3o2)cc1 ; result: >200 µM
Cc1ccc(CS(=O)c2cccc[n+]2[O-])cc1 ; result: 11 µg/mL
CN(C)C1(C23CC4CC(CC(C4)C2)C3)CCCC1 ; result: >50 µg/mL
Cn1cc(C(=O)O)c(=O)c2cc(N)c(N3CCN(c4nc5ccccc5o4)CC3)cc21 ; result: 0.15 µg/mL
N#C/C(=C/c1ccccc1)Sc1cccc[n+]1[O-] ; result: 8.7 µg/mL
CC1(C)[C@@H](CCO)C[C@H]1n1nnc2c(=O)[nH]c(N)nc21 ; result: >50 µg/mL
CCCCCCCc1cc2cn([C@H]3C[C@H](O)[C@@H](CO)O3)c(=O)nc2o1 ; result: >50 µM
Cc1ccc(C)c(C(Cl)S(=O)(=O)c2cc(C)cc[n+]2[O-])c1 ; result: >100 µg/mL
CNC1(C23CC4CC(CC(C4)C2)C3)CCCC1 ; result: ≥100 µg/mL
Cc1ccc(C)c(CSc2ncccc2O)c1 ; result: 16 µg/mL
CCOc1ccc(-c2cc3cn([C@H]4C[C@H](O)[C@@H](CO)O4)c(=O)nc3o2)cc1 ; result: >200 µM
Cn1cc(C(=O)O)c(=O)c2cc(N)c(N3CCN(c4cnccn4)CC3)cc21 ; result: 5.4 µg/mL
Cc1ccccc1CS(=O)c1cccc[n+]1[O-] ; result: 52 µg/mL
Nc1cc2c(=O)c(C(=O)O)cn(C3CC3)c2cc1N1CCN(c2cccc(C(F)(F)F)c2)CC1 ; result: 2.3 µg/mL
CC1(C)[C@@H](CCO)C[C@H]1n1nnc2c(=O)[nH]cnc21 ; result: 37 µg/mL
CN1CCCC1C12CC3CC(CC(C3)C1)C2 ; result: >50 µg/mL
O=c1[nH]c(=O)n([C@H]2C[C@H](O)[C@@H](CO)O2)cc1I ; result: 0.2 µg/mL
Nc1nc2c(ncn2COC(CO)CO)c(=O)[nH]1 ; result: 45.3 µg/mL
N#CC1C(c2ccc(Cl)cc2)Nc2ccccc2S1(=O)=O ; result: >50 µg/mL
O=c1[nH]c(=O)n([C@H]2C[C@H](O)[C@@H](CO)O2)cc1-c1ccc(Cl)o1 ; result: 105 µg/mL
Nc1ncn(CCOCP(=O)(O)O)c(=O)n1 ; result: >50 µg/mL
CC1=CC(=O)C=C(C/C=C(\C)CC/C=C(\C)CC/C=C(\C)CC[C@@H](C)C(C)(C)O)C1=O ; result: 32 µM
CCCCCCc1cc2cn([C@H]3C[C@H](O)[C@@H](CO)O3)c(=O)nc2[nH]1 ; result: >50 µM
Nc1ncnc2c1ncn2[C@@H]1C=C(CO)[C@@H](O)[C@H]1O ; result: 21.48 µg/mL
O=c1[nH]c(=O)n([C@H]2C[C@H](O)[C@@H](CO)O2)cc1-c1ccc(Br)o1 ; result: 125 µg/mL
O=[N+]([O-])c1ccc(O)c(CSc2cccc[n+]2[O-])c1 ; result: >20 µg/mL
O=c1[nH]c(=O)n([C@H]2C[C@H](O)[C@@H](CO)O2)cc1-c1cccs1 ; result: >200 µg/mL
Cc1ccc(C)c(C(Cc2ccccc2)Sc2cccc[n+]2[O-])c1 ; result: 1.6 µg/mL
Cc1c(Br)cc(Br)c2ncc(CSCCc3ccccc3)n12 ; result: >50 µg/mL
Cc1ccc(C)c(C(CC(=O)O)S(=O)(=O)c2cccc[n+]2[O-])c1 ; result: >50 µg/mL
CCCCCCCCCCc1cc2cnc(OC3CCCC3)nc2o1 ; result: >200 µM
O=S(=O)(Cc1ccccc1)c1ccccn1 ; result: 68 µg/mL
CCCCCCc1cc2cn(C3CCCC3)c(=O)nc2o1 ; result: >200 µM
CCCCCCCc1cc2cnc(OCCCCC)nc2o1 ; result: 1109 µM
Cc1c(Br)cc(Br)c2ncc(CSCCCc3ccccc3)n12 ; result: >50 µg/mL
O=[N+]([O-])c1cc(CS(=O)(=O)c2cccc[n+]2[O-])ccc1Cl ; result: 4.3 µg/mL
N#CC1C(c2ccc(Cl)cc2)Nc2sccc2S1(=O)=O ; result: 35 µg/mL
Cc1ccc(C)c(C(CC(C)C)S(=O)(=O)c2cccc[n+]2[O-])c1 ; result: 1.2 µg/mL
Cc1ccccc1CSCc1cnc2c(Br)cc(Br)c(C)n12 ; result: >50 µg/mL
Cc1ccc(C)c(CS(=O)c2ncccc2O)c1 ; result: >20 µg/mL
O=c1[nH]c(=O)n([C@@H]2C[C@H](O)[C@@H](CO)O2)cc1-c1cccs1 ; result: 180 µg/mL
Cc1c(Br)cc(Br)c2ncc(CSC(C)c3cccs3)n12 ; result: >50 µg/mL
COc1ccc(OC)c(CS(=O)c2cccc[n+]2[O-])c1 ; result: ≥100 µg/mL
CCCCCCCCCCc1cc2cn(CCCC)c(=O)nc2o1 ; result: >200 µM
COc1ccc(Br)c(CS(=O)(=O)c2cccc[n+]2[O-])c1 ; result: 15 µg/mL
CCCCc1cc2cn(C3CCCC3)c(=O)nc2o1 ; result: >200 µM
COC(=O)C(c1cc(C)ccc1C)S(=O)(=O)c1cccc[n+]1[O-] ; result: 27 µg/mL
CC1(C)[C@@H](CCO)C[C@H]1n1nnc2c(N)ncnc21 ; result: 34 µg/mL
CCCCN1CCCC1C12CC3CC(CC(C3)C1)C2 ; result: >50 µg/mL
Cc1ccc(C)c(C(Cl)S(=O)(=O)c2c(C)ccc[n+]2[O-])c1 ; result: >100 µg/mL

A second listing of 7 rows from above:

{"compound": "O=c1[nH]c(=O)n([C@H]2C[C@H](O)[C@@H](CO)O2)cc1-c1cccs1", "result": ">200 µg/mL"}
{"compound": "Cc1ccc(C)c(C(CC(C)C)S(=O)(=O)c2cccc[n+]2[O-])c1", "result": "1.2 µg/mL"}
{"compound": "Cc1ccc(C)c(CSc2ncccc2O)c1", "result": "16 µg/mL"}
{"compound": "CNC1(C23CC4CC(CC(C4)C2)C3)CCCC1", "result": "≥100 µg/mL"}
{"compound": "CCCCCCc1cc2cn([C@H]3C[C@H](O)[C@@H](CO)O3)c(=O)nc2[nH]1", "result": ">50 µM"}
{"compound": "CCCCCCCc1cc2cn([C@H]3C[C@H](O)[C@@H](CO)O3)c(=O)nc2o1", "result": ">50 µM"}
{"compound": "O=[N+]([O-])c1ccc(O)c(CSc2cccc[n+]2[O-])c1", "result": ">20 µg/mL"}